Measured values taken from US11643438B2, “Antimicrobial peptides and methods of use” (priority 2018, dated 2023).

Key:
[1] = system: C. albicans, C. auris, C. neoformans, and A. fumigatus; assay: Effect of serum on antifungal activity, four fungal pathogens; format: cell-based; details: 5% and 10% by volume serum added to the fungal culture medium
[2] = system: panel of fungal species that are known to be plant pathogens; assay: MIC/MFC against panel of 8 plant pathogen isolates; format: cell-based; details: tested ranges of 0.32 μM to 10 μM
Excerpt: Three different forms of persephacins were isolated.

Compound | change of antifungal activity with serum [1] | inhibition over all 8 isolates [2]
C[C@@H]1[C@H](O)[C@@H](C)/C=C/C=C/C=C/C=C/C=C/C=C/C=C/[C@H](O[C@@H]2O[C@H](C)[C@@H](O)[C@H](N)[C@@H]2O)C[C@@H]2O[C@](O)(C[C@@H](O)C[C@@H](O)[C@H](O)CC[C@@H](O)C[C@@H](O)CC(=O)O[C@H]1C)C[C@H](O)[C@H]2C(=O)O [AMB, amphotericin B] | no loss of activity | –
CC[C@H](C)C[C@H](C)C[C@H](C)C[C@@H]1NC(=O)[C@H](C(C)C)N(C)C(=O)[C@@H]([C@H](C)CC)OC(=O)[C@H](C(C)(C)O)N(C)C(=O)[C@H](CC(C)C)NC(=O)[C@H](C(C)C)N(C)C(=O)[C@H]([C@H](C)CC)NC(=O)[C@@H]2CCCN2C(=O)CN(C)C1=O [Compound 1, persephacin] (cyclo(L[NMeVal(β-OH)][X1][NMeV][X2][Sar]P[aIle][NMeV])) | no loss of activity | –
CCC(C)CC(C)CC(C)CC1NC(=O)C(C(C)C)N(C)C(=O)C(C(C)CC)OC(=O)C(C(C)C)N(C)C(=O)C(CC(C)C)NC(=O)C(C(C)C)N(C)C(=O)C(C(C)CC)NC(=O)C2CCCN2C(=O)CN(C)C1=O (stereo not drawn) [Persephacin C, persephacin C] (cyclo([Sar]PI[NMeV]L[NMeV][X3][NMeV][X4]); configuration not given here) | – | did not achieve complete or even 75% inhibition

*1 amine or outer side, *2 acyl side, *3 side chain or, on linkers, in order; H or OH if unused. Where a SMILES comes first, the peptide text is derived from it. [ ]: non-standard residue; d: D form. X2 = CC[C@H](C)C[C@H](C)C[C@H](C)C[C@H](N[*:1])C(=O)[*:2]; X4 = CCC(C)CC(C)CC(C)CC(N[*:1])C(=O)[*:2]; X1 = CC[C@@H](C)[C@@H](O[*:1])C(=O)[*:2]; NMeVal(β-OH) = CN[C@H](C(=O)O)C(C)(C)O; aIle = CC[C@@H](C)[C@H](N)C(=O)O; X3 = CCC(C)C(O[*:1])C(=O)[*:2]; NMeV = CN[CH](C(=O)O)C(C)C; Sar = CNCC(=O)O
